Values quoted from earlier work as cited in PMC7894237 (Inflammation Research, 2021).
Where two headings read alike, the source gives them in different places.

Experiments:
[1] = tested on: patients with MERS infection; details: human, in vivo
[2] = tested on: SARS-CoV1
[3] = tested on: MERS-CoV
[4] = tested on: SARS-CoV1 replication in Vero cells
[5] = tested on: MERS-CoV; details: mouse, in vivo
[6] = tested on: SARS-CoV1 replication in Vero cells; remark: listed apart in the source

With IFN α-2b: interferon subtype as the molecule, how does the therapeutic effect [1] read?
Its therapeutic effect is “inconclusive”.

Which therapeutic effect [1] does the source give for IFN α-2a: interferon subtype here?
The therapeutic effect was “inconclusive”.

With IFNβ-1a: interferon beta subtype as the molecule, how does the “potency as inhibitor of SARS-CoV1 infection” value [2] read?
Its value is “more potent inhibitor”.

And the “potency as inhibitor of MERS-CoV infection” value [3]?
Its value is “more potent inhibitor”.

Which results are given for IFNβ-1b: interferon beta subtype?
potency as inhibitor of SARS-CoV1 infection [2]: more potent inhibitor; potency as inhibitor of MERS-CoV infection [3]: more potent inhibitor

B1: IFN-β: type I interferon (protein, UniProt P01574 22-187, looked up)
Interferon beta: MSYNLLGFLQRSSNFQCQKLLWQLNGRLEYCLKDRMNFDIPEEIKQLQQFQKEDAALTIYEMLQNIFAIFRQDSSSTGWNETIVENLLANVYHQINHLKTVLEEKLEKEDFTRGKLMSSLHLKRYYGRILHYLKAKEYSHCAWTIVRVEILRNFYFINRLTGYLRN
Which results are given for B1?
effect on SARS-CoV1 replication [4]: inhibited synergistically; therapeutic effect [5]: improved respiratory function, but did not markedly reduce virus replication or lung pathology severity; effect on SARS-CoV1 replication [6]: may act synergistically; sensitivity of SARS-CoV1 to the interferon [6]: moderately sensitive; therapeutic effect [1]: inconclusive
